Source: publication PMC6155662, “Trypanocidal Activity of Quinoxaline 1,4 Di-N-oxide Derivatives as Trypanothione Reductase Inhibitors” (Molecules : A Journal of Synthetic Chemistry and Natural …, 2017)

Test system: T. cruzi INC-5 epimastigotes
Experiment: Viability (MTT) assay on T. cruzi epimastigotes
Format: cell-based, Trypanosoma cruzi
Conditions: ratio CC50 (J774A.1) / IC50 (INC-5 epimastigotes)

SMILES	SI
O=C(Cn1ccnc1[N+](=O)[O-])NCc1ccccc1 [Bnz, benznidazole, reference compound]	8.31
COC(=O)c1c(C)[n+]([O-])c2ccc(C(=O)OC(C)C)cc2[n+]1[O-] [Compound T-064, Isopropyl methyl-3-methyl-quinoxaline-2,7-dicarboxylate 1,4-di-N-oxide]	3.09
CCOC(=O)Cc1c(C(=O)OCC)[n+]([O-])c2cc(C(=O)OC(C)C)ccc2[n+]1[O-] [Compound T-067, Isopropyl ethyl-3-(2-ethoxy-2-oxoethyl) quinoxaline-2,7-dicarboxylate 1,4-di-N-oxide]	3.66
CC(C)OC(=O)c1ccc2c(c1)[n+]([O-])c(C(=O)c1cccs1)c(C(F)(F)F)[n+]2[O-] [Compound T-069, Isopropyl 2-(thiophene-2-carbonyl)-3-trifluoromethylquinoxaline-7-carboxylate 1,4-di-N-oxide]	2.58
CC(=O)c1c(C(F)(F)F)[n+]([O-])c2ccc(C(=O)OC(C)C)cc2[n+]1[O-] [Compound T-070, Isopropyl 2-acetyl-3-trifluoromethylquinoxaline-7-carboxylate 1,4-di-N-oxide]	6.17
CC(C)OC(=O)c1ccc2c(c1)[n+]([O-])c(C(=O)c1ccccc1)c(C(F)(F)F)[n+]2[O-] [Compound T-071, Isopropyl 2-benzoyl-3-trifluoromethylquinoxaline-7-carboxylate 1,4-di-N-oxide]	1.66
CC(C)OC(=O)c1ccc2c(c1)[n+]([O-])c(C(=O)c1ccco1)c(C(F)(F)F)[n+]2[O-] [Compound T-073, Isopropyl 2-(furyl-2-carbonyl)-3-trifluoromethylquinoxaline-7-carboxylate 1,4-di-N-oxide]	1.64
CC(C)OC(=O)c1ccc2c(c1)[n+]([O-])c(C(=O)C(C)C)c(C(F)(F)F)[n+]2[O-] [Compound T-085, Isopropyl 2-isobutyryl-3-trifluoromethylquinoxaline-7-carboxylate 1,4-di-N-oxide]	4.28
CCCOC(=O)c1ccc2c(c1)[n+]([O-])c(C(=O)OC)c(C)[n+]2[O-] [Compound T-088, n-Propil methyl-3-methylquinoxaline-2,7-dicarboxylate 1,4-di-N-oxide]	1.03
CCCOC(=O)c1ccc2c(c1)[n+]([O-])c(C(=O)c1cccs1)c(C(F)(F)F)[n+]2[O-] [Compound T-089, n-Propil 2-(thiophene-2-carbonyl)-3-trifluoromethylquinoxaline-7-carboxylate 1,4-di-N-oxide]	1.01
CCCOC(=O)c1ccc2c(c1)[n+]([O-])c(C(=O)OCC)c(C)[n+]2[O-] [Compound T-090, n-Propil ethyl-3-methylquinoxaline-2,7-dicarboxylate 1,4-di-N-oxide]	0.93
Cc1c(C(=O)c2ccccc2)[n+]([O-])c2cc(C(=O)OC(C)C)ccc2[n+]1[O-] [Compound T-098, Isopropyl 2-benzoyl-3-methylquinoxaline-7-carboxylate 1,4-di-N-oxide]	0.98
CC(C)OC(=O)c1ccc2c(c1)[n+]([O-])c(C(=O)C(C)(C)C)c(C(C)(C)C)[n+]2[O-] [Compound T-107, Isopropyl 2-(tert-butyl-2-carbonyl)-3-tert-butylquinoxaline-7-carboxylate 1,4-di-N-oxide]	1.79
Cc1c(C(N)=O)[n+]([O-])c2cc(C(=O)OC(C)C)ccc2[n+]1[O-] [Compound T-108, Isopropyl 2-amide-3-methyl-quinoxaline-7-carboxilate 1,4-di-N-óxide]	1.69
CCOC(=O)c1c(C(F)(F)F)[n+]([O-])c2ccc(C(=O)OC(C)C)cc2[n+]1[O-] [Compound T-116, Isopropyl ethyl-3-trifluoromethylquinoxaline-2,7-dicarboxylate 1,4-di-N-oxide]	2.78
CC(C)OC(=O)c1ccc2c(c1)[n+]([O-])c(C(=O)C(F)(F)C(F)(F)F)c(C(F)(F)F)[n+]2[O-] [Compound T-118, Isopropyl 2-pentafluorocarbonyl-3-trifluoromethylquinoxaline-7-carboxylate 1,4-di N-oxide]	2.18
